In-gel DMS probing of monomeric and dimeric HIV-1 RNA

Reference: Ye et al. 2022, doi:10.1038/s41594-022-00746-2.

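Randomly mutated transcripts starting with one, two or three G (1G, 2G, 3G), capped or uncapped, were folded for 30 min at 37 °C. High salt was 300 mM KCl and 5 mM MgCl2, low salt 40 mM KCl and 0.1 mM MgCl2; monomer and dimer were parted on a native gel. Gel slices were treated with 170 mM dimethyl sulfate for 15 min at 37 °C and read by mutational profiling against an ethanol control.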

Sequence of the HIV-1 NL4-3 5' RNA, positions 1 to 437, as numbered in the source:
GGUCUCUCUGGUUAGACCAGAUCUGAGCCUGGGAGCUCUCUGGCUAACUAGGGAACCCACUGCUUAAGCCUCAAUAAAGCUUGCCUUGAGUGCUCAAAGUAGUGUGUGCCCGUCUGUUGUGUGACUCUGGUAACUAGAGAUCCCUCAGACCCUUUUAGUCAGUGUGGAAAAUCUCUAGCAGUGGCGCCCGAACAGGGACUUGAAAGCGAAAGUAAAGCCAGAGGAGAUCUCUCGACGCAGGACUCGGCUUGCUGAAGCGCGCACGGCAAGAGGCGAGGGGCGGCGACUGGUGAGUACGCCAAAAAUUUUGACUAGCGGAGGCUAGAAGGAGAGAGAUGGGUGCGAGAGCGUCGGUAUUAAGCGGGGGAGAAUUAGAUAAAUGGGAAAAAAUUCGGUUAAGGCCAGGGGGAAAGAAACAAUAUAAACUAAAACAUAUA

Values are winsor-normalised DMS reactivities of A and C; higher means more reactive, usually unpaired.
One numbering serves 1G, 2G and 3G.
A position is written with its base.
A dash means no value.

position,1G uncapped low-salt monomer,2G capped high-salt dimer,2G uncapped low-salt monomer
A271,0.59,0.52,0.53
C274,0.69,0.21,0.68
A276,1.03,0.34,1.05
C281,0.37,0.45,0.34
C284,0.19,0.15,0.21
A286,0.53,0.63,0.51
C287,0.27,0.41,0.28
A293,0.83,0.87,0.79
A296,0.59,0.57,0.59
C297,0.14,0.13,0.18
C299,0.05,0.07,0.05
C300,0.05,0.07,0.06
A301,0.25,0.24,0.25
A302,1.20,1.15,1.19
A303,0.08,0.07,0.07
A304,0.18,0.16,0.16
A305,0.72,0.68,0.69
A311,1.22,1.25,1.21
C312,0.09,0.07,0.10
A314,0.05,0.03,0.03
C316,0.10,0.05,0.12
A319,0.92,0.89,0.88
C322,0.05,0.03,0.03
A324,0.10,0.07,0.11
A326,0.81,0.89,0.80
A327,0.99,1.03,0.98
A330,0.89,0.81,0.87
A332,0.64,0.46,0.60
A334,0.57,0.38,0.50
A336,1.04,0.74,0.91
C343,0.23,0.33,0.37
A345,1.22,1.24,1.23
A347,0.32,0.26,0.28
C349,0.30,0.35,0.33
C352,0.36,0.40,0.33
A356,1.14,0.92,-
A359,0.35,0.58,-
A360,0.33,0.61,-
C362,0.21,0.39,-
A368,0.99,0.78,-
A370,0.46,0.51,-
A371,0.87,0.91,-

2 of these entries, quoted again:

- A319 = 1G uncapped low-salt monomer 0.92; 2G capped high-salt dimer 0.89; 2G uncapped low-salt monomer 0.88
- A360 = 1G uncapped low-salt monomer 0.33; 2G capped high-salt dimer 0.61